Pooled drug test results. Numbers come from NIAID ChemDB, via PubChem.

All rows: growth or infection tests; organism: Herpes simplex virus 1; cell line: MRC-5; measure: EC50

Blank or dashed fields: not listed here. ECn: concentration that inhibits the pathogen or its effect by n%. a–b is a range or a potency band. Lines come from different laboratories, so protocols vary.

SMILES,strain,read by,result
Nc1ccn(C[C@@H](CO)OCP(=O)(O)O)c(=O)n1,BW-R (TK-),plaque count,1.1 µM
Nc1nc(=S)n([C@H]2C[C@H](O)[C@@H](CO)O2)cc1Br,KOS,plaque count,21.2 µM
CCCCCCCCCCCCCCCCOCCCOP(=O)(O)OCC(CO)CCn1cnc2c(=O)[nH]c(N)nc21,-,plaque count,>145 µM
CCCCCCCCCCCCCCCCCCOCCOP(=O)(O)CO[C@H](CO)Cn1ccc(N)nc1=O,-,-,0.001 µM
CCCCCCCC/C=C\CCCCCCCOCCCOP(=O)(O)CO[C@H](CO)Cn1cnc2c(N)ncnc21,-,hybridisation,<0.0025 µM
Nc1nc2c(ncn2C[C@]2(CO)C[C@H]2CO)c(=O)[nH]1,Tomioka,plaque count,0.0093 µg/mL
CCCCCCCCCCCCCCCCOP1(=O)CO[C@@H](Cn2ccc(N)nc2=O)CO1,-,-,3.1 µM
Nc1nc(=S)n([C@@H]2O[C@H](CO)[C@@H](O)[C@@H]2O)cc1Cl,KOS,plaque count,>341 µM
CCCCCCCCCCCCCCCCOCCCOP(=O)(O)OCC(CO)OCn1cnc2c(=O)[nH]c(N)nc21,-,plaque count,1.1 µM
Nc1nc(=S)n([C@@H]2O[C@H](CO)[C@@H](O)[C@@H]2O)cc1Br,TK-,plaque count,29 µM
Nc1ccn(C[C@H]2COP(=O)(O)CO2)c(=O)n1,-,plaque count,28.4 µM
O=c1[nH]c(=S)n([C@H]2C[C@H](O)[C@@H](CO)O2)cc1Cl,KOS,plaque count,14.4 µM
Nc1nc2c(ncn2COC2COP(=O)(O)OC2)c(=O)[nH]1,Schooler,plaque count,10–37 µM
Nc1nc2c(ncn2COCCO)c(=O)[nH]1,SC16,plaque count,0.6 µg/mL
Nc1nc(=S)n([C@@H]2O[C@H](CO)[C@@H](O)[C@@H]2O)cc1I,KOS,plaque count,0.65 µM